Results taken from the supplement of paper PMC9931576.
Substitutions are numbered along the chain they refer to. Human monoclonal antibodies against the spike receptor-binding domain (heavy:light variable regions). IC50 against pseudoviruses bearing the spike of naturally observed variants; lower = stronger; >10 µg/ml means not reached at the top dose. No active / inactive call. The stated detection limit is 0.0005 µg/ml; values near or below 0.001 µg/ml lie at the floor of the assay.

B1: BD56-1905 (protein)
chain 1: QVQLVQSGAEVKKPGSAVTVSCKASGGTFSRFAINWVRQAPGQGLEWMGRIITISGASNYPQKFQGRVTITADKSTSTAYMELSSLRSEDTAVYYCASPYGANSVYGYLWDHYYGMDVWGQGTTVTVSS
chain 2: QSALTQPASVSGSPGQSITISCTGTSSDVGGYNYVSWYQQHPGKAPKLMIYDVSNRPSGISNRFSGSKSGNTASLTISGLQAEDEADYYCSSYTSSSTLYVFGTGTKVTVL
B2: BD56-1912 (protein)
chain 1: QVQLVQSGTEVKRPGSSVKVSCKASEDTFNSFAISWVRQAPGQRLEWIGRIIPIRGPAIYAQKFQGRVTISADKSTTTAYMELSSLRSEDTAVYYCARDEAVGSFYGSGSYYVDYWGQGTLVTVSS
chain 2: B1 chain 2 with S26G, Y34H, M49L, S54T, I60V, E83D, S91N, S96G, K107T
B3: BD56-1910 (protein)
chain 1: QITLKESGPTLVKPTQTLTLTCTFSGFSLSTRAVGVGVGWIRQPPGKALEWLALIYWDDDKRYSPSLESRLTITKDPSKNQVVLTMTNMDPVDTATYFCARHGIEVVFDYWGQGTVVTVSS
chain 2: QSALTQPRSVSGSPGQSVTISCTATTGDVGDYVYVSWYQQHPGKAPKLLIYDVTKRPSGVPDRFSGSKSGNTASLTISGLQTEDEAHFFCCSYTGTSVLFGGGTKLTVL
B4: BD-467 (protein)
chain 1: EVQLVESGGGLVQPGGSLRLSCAASGITVSSNYMTWVRQAPGKGLEWVSLIYSGGSTYYADSVKGRFTISRDNSKNTLHLQMNSLRGEDTAVYYCARDLVAFGMDVWGQGTTVTVSS
chain 2: IQLTQSPSSLSASVGDRVTITCRASQGISSYLAWYQQKPGKAPKLLIYAASTLQGGVPSRFSGSGSGTDFTLTISSLQSEDSATYYCQQLNSDTPTFGPGTKVEIK
B5: BD56-1909 (protein)
chain 1: QVHLVQSGAEVKKPGSSVKVSCMASGGSFSSSAISWVRQAPGQGLEWMGRIIPLLGVAYYVQKFQDRVTFSADESSNTAYMDLTSLRSEDTAVYYCARVPHILTGYYSGFAFDIWGQGTMVIVSS
chain 2: EIVLTQSPGTLSLSPGERATLSCRASQSVSSSHLAWYQQKPGQAPRLLIYGASSRATGIPDRFSGSGSGTDFTLTISRLEPEDFAVFYCQQYNSSPYTFGQGTRLEIK
B6: BD56-1900 (protein)
chain 1: QVQLQESGPGLVKPSQTLSLTCTVSGDSINSGSYYWSWIRQTAGKGLEWIGRIYVSGATSYNPSLRSRVNISIDTSENRFSLNLTSVTAADTAVYYCARESKTTVTESGLVGVRVDPWGQGTQVIVSS
chain 2: DIQMTQSPSSLSASVGDRVTITCRASQSITRYLNWYQQKPGKAPKLLIYAASTLQSGVPSRFSGGASGSDFTLTISSLQPEDFATYFCHHSYGTPLFGPGTKVDIK

The binders below were run against SARS-CoV-2 Omicron BA.1 spike pseudovirus (assay: pseudovirus neutralization IC50; higher = weaker neutralization).
Description: (§1)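 Single-round VSV luciferase pseudovirus mixed with antibody dilutions for 1 h and put on Huh-7 cells for about a day; IC50 from the dose curve.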

Binder	pseudovirus neutralization IC50 [µg/mL]
B1	> 10
B2	0.204
B3	0.012
B4	3.25
B5	0.0369
B6	0.361

Each binder was assayed against SARS-CoV-2 Omicron BA.2 spike pseudovirus in the same assay as above.
Description: as §1

Binder	pseudovirus neutralization IC50 [µg/mL]
B1	0.269
B2	0.134
B3	0.00102
B4	5.18
B5	0.0576
B6	0.563

The binders below were run against SARS-CoV-2 Omicron BA.2.75 spike pseudovirus in the same assay as above.
Description: as §1

Binder	pseudovirus neutralization IC50 [µg/mL]
B1	> 10
B2	0.00997
B3	0.00464
B4	4.13
B5	0.00522
B6	0.155

The binders below were run against SARS-CoV-2 Omicron BA.5 spike pseudovirus in the same assay as above.
Description: as §1

Binder	pseudovirus neutralization IC50 [µg/mL]
B1	> 10
B2	7.48
B3	0.000714
B4	2.81
B5	> 10
B6	> 10

These binders were tested against SARS-CoV-2 Omicron BQ.1.1 spike pseudovirus in the same assay as above.
Description: as §1

Binder	pseudovirus neutralization IC50 [µg/mL]
B1	> 10
B2	> 10
B3	> 10
B4	> 10
B5	> 10
B6	> 10

Each binder was assayed against SARS-CoV-2 Omicron XBB spike pseudovirus in the same assay as above.
Description: as §1

Binder	pseudovirus neutralization IC50 [µg/mL]
B1	> 10
B2	1.89
B3	> 10
B4	> 10
B5	> 10
B6	> 10

These binders were tested against SARS-CoV-2 early D614G spike pseudovirus in the same assay as above.
Description: as §1

Binder	pseudovirus neutralization IC50 [µg/mL]
B1	0.00318
B2	0.0106
B3	0.00321
B4	0.0058
B5	0.000945
B6	0.00101
